Patent US7138231B2 (priority 2000, dated 2006)

Tests used:
Type in all cases: cell-based
[1] = tested on: HIV-1 patient viruses with protease L90M; assay: Phenotypic susceptibility profiles of 333 patient virus samples with L90M (not 30 or 50)
[2] = tested on: HIV-1 patient-derived protease and reverse transcriptase segments (N88S in PR) in resistance test vectors; assay: Phenotypic drug susceptibility test with resistance test vectors from patient samples
[3] = tested on: HIV-1 patient viruses with protease L90M; assay: Phenotypic susceptibility profiles of 58 patient virus samples with L90M, no other primary mutations

CC(C)(C)NC(=O)[C@@H]1C[C@@H]2CCCC[C@@H]2CN1C[C@@H](O)[C@H](Cc1ccccc1)NC(=O)[C@H](CC(N)=O)NC(=O)c1ccc2ccccc2n1 [saquinavir]
Percent of viruses with indicated primary mutation(s) with reduced susceptibility (fold change in IC50 > 2.5) [1]: 79.3% | Percent of viruses with indicated primary mutation(s) with reduced susceptibility (fold change in IC50 > 10) [1]: 43.5% | Mean SQV fold change ([1]; number of secondary mutations (weighted count) 0): 2.4 fold | Mean SQV fold change ([1]; number of secondary mutations (weighted count) 1): 2.4 fold | Mean SQV fold change ([1]; number of secondary mutations (weighted count) 2): 5.4 fold | Mean SQV fold change ([1]; number of secondary mutations (weighted count) 3): 10.0 fold | Mean SQV fold change ([1]; number of secondary mutations (weighted count) 4): 36.6 fold | Mean SQV fold change ([1]; number of secondary mutations (weighted count) 5): 50.3 fold | Mean SQV fold change ([1]; number of secondary mutations (weighted count) 6 or more): 94.2 fold | Fold Change vs. Reference ([2]; patient sample 360, prior PRI IDV, PR I13V, K20M, M36V, N37A, M46I, I62V, L63P, I93L): 1.88 fold | Fold Change vs. Reference ([2]; patient sample 627, prior PRI IDV, PR I13I/V, E35D, M46L, L63P, I64V, I73V): 0.26 fold | Fold Change vs. Reference ([2]; patient sample 0732, prior PRI NFV, PR K14R, I15V, K20T, E35D, M36I, R41K, I62V, L63Q): 0.73 fold | Fold Change vs. Reference ([2]; patient sample 0910, prior PRI NFV, PR M46I, L63P, V77I, I93I/L): 1.41 fold | Fold Change vs. Reference ([2]; patient sample 1208, prior PRI NFV, PR I62V, L63P, V77I): 1.55 fold | Fold Change vs. Reference ([2]; patient sample 3542, prior PRI IDV, PR I13V, K14R, N37D, M46I, L63P, I93L): 1.28 fold | Fold Change vs. Reference ([2]; patient sample 3654, PR I13V, R41K, M46I, L63P, V77I, I93L): 1.80 fold | Percent of viruses with indicated primary mutation(s) which are drug sensitive (fold change in IC50 < 2.5) [3]: 46.6%
